Measured values from several laboratories, pooled; numbers as filed in NIAID ChemDB.

Shared fields: tests in culture; organism: Mycobacterium tuberculosis

Percent inhibition refers to the dose given; in toxicity tests it is the harm to the cells. Blank or dashed fields: not listed here. MIC bound comes from a single tested concentration. A number after MIC or MFC names an inhibition level or a share of isolates. Two numbers with a dash give a range or band. ECn is the concentration giving n% inhibition of infection, replication or growth. Lines come from different laboratories, so protocols vary.

| compound | strain | endpoint | tested at | method | changes | result |
|---|---|---|---|---|---|---|
| O=C(CSc1nnc(-c2ccc(N=Cc3ccc(Cl)cc3)cc2)o1)Nc1ccccc1[N+](=O)[O-] | H37Rv | inhibition | 6.25 µg/mL | resazurin | - | -16% |
| CCCCCCCCC/C=C/C=C/C(=O)NCC(C)C | H37Rv (ATCC 27294) | MIC | - | broth dilution / turbidity | - | 1.6 µg/mL |
| COc1ccc(CCN2CC(=O)NC(=O)C2)cc1OC | H37Rv | MIC bound | - | BACTEC | - | >12.5 µg/mL |
| Clc1ccc2ncn3c4ccccc4nc3c2c1 | H37Rv | MIC99 | - | resazurin | - | >25 µg/mL |
| CC(=O)OCC1=C(C(=O)O)N2C(=O)[C@@H](NC(=O)Cc3cccs3)[C@H]2SC1 | H37Ra | MIC | - | - | - | >16 µg/mL |
| N#Cc1ccc2c(=O)c3ccccc3oc2c1 | H37Rv | MIC | - | - | - | >8 µg/mL |
| CCc1nc2ccc(Cl)cn2c1C(=O)NCc1ccc(N2CCC(c3ccc(OC(F)(F)F)cc3)CC2)cc1 | Erdman | EC50 | - | resazurin | cydA | 0.00013 µM |
| C[C@H](c1ccccc1)N1C/C(=C/c2ccccc2)[C@]2(ON=C(c3ccccc3)O2)C2(C1)ON=C(c1ccccc1)[C@H]2c1ccccc1 | - | MIC | - | - | - | 20.24 µM |
| O=C(NN1C(=O)CSC1c1ccccc1F)c1ccncc1 | 14PI | MIC | - | - | - | >5 µg/mL |
| CC1COc2c(N3CCN(C)CC3)c(F)cc3c(=O)c(C(=O)O)cn1c23 | 187 isolates | MIC50 | - | - | - | 0.5 µg/mL |
| O=c1nc2sc3ccccc3c(=O)n2[nH]1 | H37Rv | inhibition | 6.25 µg/mL | resazurin | - | 0% |
| C[C@H](c1ccccc1)N1C/C(=C/c2ccccc2)[C@]2(ON=C(c3ccc(Cl)cc3)O2)C2(C1)ON=C(c1ccc(Cl)cc1)[C@H]2c1ccccc1 | H37Rv | MIC | - | - | - | 9.1 µM |
| CCc1nc(NCCCc2ccccc2)c2cc(C)sc2n1 | Erdman | EC50 | - | resazurin | - | 0.14 µM |
| CO/C(=N\N=C\c1ccc(OC)cc1OC)c1ccncc1 | H37Rv | MIC | - | - | - | >20 µg/mL |
| NC(=O)/C(N=Nc1ccccc1C(=O)O)=N/Nc1ccccc1C(=O)O | H37Rv | MIC | - | BACTEC | - | ≥12.5 µg/mL |
| c1ccc(P(c2ccccc2)c2ccccc2)cc1 | H37Rv | MIC90 | - | resazurin | - | >250 µg/mL |
| CCc1nc(NC(C(=O)O)C(C)C)c2cc(C)sc2n1 | Erdman | EC50 | - | resazurin | qcrCAB | 1.7 µM |
| COc1c(O)ccc2c1cnc1c3cc4c(cc3ccc21)OCO4 | H37Rv (ATCC 27294) | MIC | - | broth dilution / turbidity | - | 1.6 µg/mL |
| COC(=O)c1cn(-c2cc(C)ccn2)nn1 | H37Rv | inhibition | 6.25 µg/mL | - | - | 0% |
| COc1ccc2c(cnc3c4cc5c(cc4ccc23)OCO5)c1OC | H37Ra ATCC 25177 | MIC | - | broth dilution / turbidity | - | >50 µg/mL |
| Cc1ccc2occ(C(O)Cc3nc4ccccc4[nH]3)c(=O)c2c1 | H37Rv | MIC | - | - | - | 60 µM |
| C[C@H](c1ccccc1)N1C/C(=C/c2ccccc2Br)[C@]2(ON=C(c3ccccc3)O2)C2(C1)ON=C(c1ccccc1)[C@H]2c1ccccc1Br | H37Rv | MIC | - | - | - | 8.06 µM |
| C/C(=N\NC(=O)c1ccncc1)c1ccc(Cl)c(Cl)c1 | H37Rv | MIC | - | - | - | >20 µg/mL |
| O=C(O)[C@H]1/C(=C/CO)O[C@@H]2CC(=O)N21 | Isolate 2 | MIC | - | - | - | >16 µg/mL |
| COc1ccc(/C(C)=N/NC(=O)c2ccncc2)c(OC)c1 | 6 PI | MIC | - | - | - | >20 µg/mL |
| CC1(C)OC2COC3OC(C)(C)OC3(/C=N/NC(=O)c3cc4ccccc4[nH]3)C2O1 | H37Rv | MIC bound | - | BACTEC | - | >12.5 µg/mL |
| CCCOC(=O)c1cn(-c2ccc(-c3ccccc3)nn2)nn1 | H37Rv | inhibition | 6.25 µg/mL | - | - | 41% |
| CCOC(=O)C(=O)/C(=C/n1c(=S)[nH]c2ccc([N+](=O)[O-])cc21)C(=O)OCC | H37Rv | MIC bound | - | resazurin | - | >6.25 µg/mL |
| COC(=O)c1cccc2oc3ccccc3c(=O)c12 | H37Rv | MIC | - | - | - | >32 µg/mL |
| C[C@@H](O)[C@H]1C(=O)N2C(C(=O)O)=C(SCCN=CN)C[C@H]12 | H37Ra | MIC | - | - | - | 4 µg/mL |
| CCCc1nc2ccccc2c2nc3ccccc3n12 | H37Rv | MIC99 | - | resazurin | INH resistant | 0.78 µg/mL |
| CC1=C(C(=O)Nc2ccc(F)c(Cl)c2)C(c2cccc(Oc3ccccc3)c2)C(C(=O)Nc2ccc(F)c(Cl)c2)=C(C)N1 | H37Rv | MIC | - | - | - | >6.25 µg/mL |
| NNC(=O)c1ccncc1 | 88.7 | MIC | - | resazurin | pyrG V186G | 0.025 µg/mL |
| C=CC[n+]1c(C=Cc2coc3ccc(Br)cc3c2=O)sc2ccccc21 | H37Rv | MIC | - | - | - | 60 µM |
| Cc1nc2ccc(Br)cc2c2nc3ccccc3n12 | H37Rv | MIC99 | - | resazurin | - | 12.5 µg/mL |
| CC1(C)[C@H](C(=O)O)N2C(=O)C[C@H]2S1(=O)=O | Isolate 3 | MIC | - | - | - | >16 µg/mL |
| Cn1c2ccccc2c(=S)c2c(O)cc3c(c21)C=CC(C)(C)O3 | H37Rv | MIC bound | - | BACTEC | - | >12.5 µg/mL |
| NC1=C([N+](=O)[O-])NC2OC[C@@H](OCc3ccc(OC(F)(F)F)cc3)CN12 | Ddn- | MIC | - | broth dilution | - | >100 µM |
| C[C@H](c1ccccc1)N1C/C(=C/c2ccccc2Cl)[C@]2(ON=C(c3ccc(Cl)cc3)O2)C2(C1)ON=C(c1ccc(Cl)cc1)[C@H]2c1ccccc1Cl | H37Rv | MIC | - | - | - | 2.06 µM |
| Cc1nc2ccccc2c2nc3ccccc3n12 | H37Rv | MIC99 | - | resazurin | INH resistant | 1.56 µg/mL |
| CC1Cc2nc3ccccc3c(=O)n2O1 | H37Rv | inhibition | 6.25 µg/mL | resazurin | - | 0% |
| C=CC[n+]1c(C=Cc2coc3ccc(C)cc3c2=O)sc2ccccc21 | H37Rv | MIC | - | - | - | 250 µM |
| Cc1ccc(NC(=O)C(=S)Nc2ccc(C)cc2)cc1 | - | MIC | - | - | - | 37 µM |
| O=[N+]([O-])c1cn[nH]c1.[Cl][Pd][Cl].c1ccc(P(c2ccccc2)c2ccccc2)cc1 | H37Rv | MIC90 | - | resazurin | - | 18.63 µM |
| COCC1OC(COCC2OCC3OC4(OCC(O)(C(C)OC)C5OCOC54)OC3C2OC)C(OC)C(O)C1COC1OC(C)C(OC)C(COC2OC(C)C3CC4(CC(O)C(COC5CC(COC6CC(C)([N+](=O)[O-])C(OC)C(C)O6)C(OC(=O)c6c(C)c(Cl)c(O)c(Cl)c6OC)C(C)O5)C(C)O4)OC3(C)C2O)C1O | H37Rv | inhibition | 12.5 µg/mL | BACTEC | - | 49% |
| CO/C(=N\N=C\c1cccc(C(C)(F)F)c1)c1ccncc1 | H37Rv | MIC | - | - | - | >20 µg/mL |
| NNC(=O)c1ccncc1 | Isolate 2218 | MIC | - | - | - | 4 µg/mL |
| COc1ccc2nc3cc(Cl)ccc3c(Nc3cc(CN4CCCC4)c(O)c(CN4CCCC4)c3)c2n1 | Ty1 | MIC | - | resazurin | Rv3405c c190t | 5–10 µg/mL |
| O=C(NN1C(=O)CSC1c1ccc(F)cc1)c1ccncc1 | 14PI | MIC | - | - | - | 5 µg/mL |
| NNC(=O)c1ccncc1 | H37Ra ATCC 25177 | MIC | - | broth dilution / turbidity | - | 0.03 µg/mL |
| CCc1nc2ccc(F)cc2c2nc3ccccc3n12 | H37Rv | MIC99 | - | resazurin | - | >25 µg/mL |
| COc1ccc2c(c1OC)C(CC(C)=O)N(C)c1c-2ccc2cc3c(cc12)OCO3 | H37Rv (ATCC 27294) | MIC | - | broth dilution / turbidity | - | >50 µg/mL |
| O=C(N/N=C/c1ccc(Cl)cc1Cl)c1ccncc1 | 16PI | MIC | - | - | - | >5 µg/mL |
| CCc1nc(NCCCOC(C)C)c2cc(C)sc2n1 | Erdman | EC50 | - | resazurin | - | 0.32 µM |
| Cc1ccc(NC(=O)c2ccc(C(=O)Nc3ccc(C)c(Cl)c3)cc2)cc1Cl | H37Rv | inhibition | 12.5 µg/mL | BACTEC | - | 13% |
| CCCc1nc2ccc(C)cc2c2nc3ccccc3n12 | H37Rv | MIC99 | - | resazurin | INH resistant | 12.5 µg/mL |
| CC1=NN(c2ccccc2)C(=O)C1=Nc1c(C)[nH]n(-c2ccccc2)c1=O | H37Rv | inhibition | 12.8 µg/mL | BACTEC | - | 25% |
| Cc1ccc2occ(C=Cc3nc4ccccc4s3)c(=O)c2c1 | H37Rv | MIC | - | - | - | 250 µM |
| CC1=C(C(=O)Nc2ccccc2C)C(c2cccc(Cl)c2)C(C(=O)Nc2ccccc2C)=C(C)N1 | H37Rv | MIC | - | - | - | >6.25 µg/mL |
| Cc1ccc2oc3ccccc3c(=O)c2c1 | H37Rv | MIC | - | - | - | >32 µg/mL |
| C[C@H](c1ccccc1)N1C/C(=C\c2ccc(Cl)cc2Cl)[C@@]2(ON=C(c3ccccc3)O2)[C@@]2(C1)ON=C(c1ccccc1)[C@@H]2c1ccc(Cl)cc1Cl | H37Rv | MIC | - | - | - | 1.03 µM |
| CN(C(=O)/C=C/c1ccccc1)C1C2CN3CCC(O2)C13 | H37Rv | MIC bound | - | BACTEC | - | >12.5 µg/mL |
| CC(C)c1ccc(C2=NO[C@@]3(O2)C(=Cc2cccc4ccccc24)CN([C@H](C)c2ccccc2)CC32ON=C(c3ccc(C(C)C)cc3)[C@H]2c2cccc3ccccc23)cc1 | H37Rv | MIC | - | - | - | 15.59 µM |
| COc1ccc(/C=N/NC(=O)CNC(=O)n2ccnc2)cc1 | H37Rv | MIC bound | - | BACTEC | - | >12.5 µg/mL |
| C[C@H](c1ccccc1)N1C/C(=C/c2ccc(Cl)cc2)[C@]2(ON=C(c3ccc(Cl)cc3)O2)C2(C1)ON=C(c1ccc(Cl)cc1)[C@H]2c1ccc(Cl)cc1 | H37Rv | MIC | - | - | - | 4.14 µM |
| CCCCOC(=O)c1cn(-c2cccnn2)nn1 | H37Rv | inhibition | 6.25 µg/mL | - | - | 20% |
| CC1=C(C(=O)Nc2ccc(Cl)cc2Cl)C(c2ccc(Cl)cc2)C(C(=O)Nc2ccc(Cl)cc2Cl)=C(C)N1 | H37Rv | MIC | - | - | - | >6.25 µg/mL |
| C/C1=C\[C@@H](C)C/C=C/[C@H]2[C@@H]3O[C@]3(C)[C@@H](C)[C@H]3[C@H](Cc4c[nH]c5ccccc45)NC(=O)[C@]32C(=O)/C=C/C(=O)[C@@H]1O | H37Rv | MIC bound | - | BACTEC | - | >12.5 µg/mL |
| CCCCCOC(=O)c1cn(-c2ccc(-c3ccccc3)nn2)nn1 | H37Rv | inhibition | 6.25 µg/mL | - | - | 99% |
| COc1ccc2nc(C)n3c4ccccc4nc3c2c1 | H37Rv | MIC99 | - | resazurin | - | 12.5 µg/mL |
| COC(=O)c1cn(-c2ccc(-c3ccccc3)nn2)nn1 | H37Rv | inhibition | 6.25 µg/mL | - | - | 99% |
| S=C(S)Nc1cccc(Cl)c1 | H37Rv | MIC | - | BACTEC | - | ≥12.5 µg/mL |
| CCOC(=O)c1cn(-c2cc(C)ccn2)nn1 | H37Rv | MIC | - | - | - | >6.25 µg/mL |
| CCc1nc(N2CCCCC2)c2cc(C)sc2n1 | Erdman | EC50 | - | resazurin | - | 49 µM |
| O=C(NNC(=S)Nc1ccc(S(=O)(=O)N2CCCCC2)cc1)c1ccncc1 | H37Rv | inhibition | 6.25 µg/mL | resazurin | - | 97% |
| CC1=C(C(=O)Nc2ccc(F)c(Cl)c2)C(c2ccccc2Cl)C(C(=O)Nc2ccc(F)c(Cl)c2)=C(C)N1 | H37Rv | MIC | - | - | - | >6.25 µg/mL |
| CCC[N+]1=C/c2ccccc2OC(=O)/C=C\1[O-] | H37Rv | inhibition | 12.5 µg/mL | BACTEC | - | 58% |
| CCCCCCCCCCCC(=O)CC1c2c(ccc(OC)c2OC)-c2ccc3cc4c(cc3c2N1C)OCO4 | H37Ra ATCC 25177 | MIC | - | broth dilution / turbidity | - | >50 µg/mL |
| CCCCc1nc2ccccc2c2nc3cc4ccccc4cc3n12 | H37Rv | MIC99 | - | resazurin | INH resistant | 12.5 µg/mL |
| C[C@H](c1ccccc1)N1C/C(=C/c2ccccc2Cl)[C@]2(ON=C(c3ccccc3)O2)C2(C1)ON=C(c1ccccc1)[C@H]2c1ccccc1Cl | H37Rv | MIC | - | - | - | 4.56 µM |
| O=c1c(Cl)c2cc3c(cc2c2ccccc12)nc1ccccc1n3C1CCCCC1 | H37Rv | inhibition | 12.5 µg/mL | BACTEC | - | -16% |
| Cc1cccc2oc3ccccc3c(=O)c12 | H37Rv | MIC | - | - | - | >32 µg/mL |
| Cc1ccc(/C=N/NC(=O)c2ccncc2)cc1 | H37Rv | MIC | - | resazurin | - | ≤0.1 µg/mL |
| [Cl][Pd][Cl].c1ccc(P(c2ccccc2)c2ccccc2)cc1.c1cn[nH]c1 | H37Rv | MIC90 | - | resazurin | - | 11.95 µM |
| O=C(O)c1ccc(Nc2nc3nn(Cc4ccccc4)cc3c(=O)s2)cc1 | H37Rv | inhibition | 12.5 µg/mL | BACTEC | - | 17% |
| CC1CC(C)CC(C)C(O)/C(C#N)=C\C=C/CC(C2CCCC2C(=O)O)OC(=O)CC(O)C(C)C1 | - | MIC | - | resazurin / visual reading | - | 4.17 µg/mL |

Again, the opening 5 rows:

O=C(CSc1nnc(-c2ccc(N=Cc3ccc(Cl)cc3)cc2)o1)Nc1ccccc1[N+](=O)[O-] ; strain: H37Rv ; endpoint: inhibition ; tested at: 6.25 µg/mL ; method: resazurin ; result: -16%
CCCCCCCCC/C=C/C=C/C(=O)NCC(C)C ; strain: H37Rv (ATCC 27294) ; endpoint: MIC ; method: broth dilution / turbidity ; result: 1.6 µg/mL
COc1ccc(CCN2CC(=O)NC(=O)C2)cc1OC ; strain: H37Rv ; endpoint: MIC bound ; method: BACTEC ; result: >12.5 µg/mL
Clc1ccc2ncn3c4ccccc4nc3c2c1 ; strain: H37Rv ; endpoint: MIC99 ; method: resazurin ; result: >25 µg/mL
CC(=O)OCC1=C(C(=O)O)N2C(=O)[C@@H](NC(=O)Cc3cccs3)[C@H]2SC1 ; strain: H37Ra ; endpoint: MIC ; result: >16 µg/mL